Assay results reported in ChEMBL document CHEMBL4673223, “Synthesis, Biological, and Structural Explorations of New Zwitterionic Derivatives of 14- O-Methyloxymorphone, as Potent μ/δ Opioid Agonists and Peripherally Selective Antinociceptives” (J Med Chem, 2019).

Assay: Selectivity index, ratio of Ki for displacement of [3H]U69,593 from kappa opioid receptor in guinea-pig brain membranes to Ki for displacement of [3H]DAMGO from mu opioid receptor in rat brain membranes
Type: cell membranes
Outline: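 Guinea-pig brain membranes (0.3–0.5 mg protein) in 50 mM Tris-HCl, pH 7.4, were incubated with 1 nM [3H]U69,593 for 30 min at 30 °C, with 10 μM naloxone defining nonspecific binding. MOR was measured on rat brain membranes with 1 nM [3H]DAMGO for 45 min at 35 °C. Samples were filtered and scintillation counted, and Ki was obtained by Cheng–Prusoff; duplicates, 3–4 experiments.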

## CO[C@@]12CCC(=O)[C@@H]3Oc4c(O)ccc5c4[C@@]31CCN(C)[C@@H]2C5
  Ratio Ki: 102
